Anti-infective test results gathered from many reports (values: NIAID ChemDB through PubChem).

Shared fields: target-level tests; species: HIV-1; protein: Reverse transcriptase

An empty or dashed field is not shown.

structure,endpoint,mutations,read by,strain or isolate,value
O=C(CCc1ccc(O)c2c1[C@H](C(=O)O[C@H](Cc1ccc(O)c(O)c1)C(=O)[O-])[C@@H](c1ccc(O)c(O)c1)O2)O[C@H](Cc1ccc(O)c(O)c1)C(=O)[O-].[Mg+2],IC50,,nucleotide incorporation,,>20 µg/mL
Cc1cn([C@H]2C[C@H](N=[N+]=[N-])[C@@H](COP(=S)([S-])OP(=O)(O)C(F)(F)P(=O)(O)O)O2)c(=O)[nH]c1=O,IC50,,fluorescence,,>0.5 µM
CC(C)Nc1cccnc1N1CCN(C(=O)c2cc3cccnc3[nH]2)CC1,IC50,,nucleotide incorporation,,<100 µM
CCN1c2ncc(CCOc3cccc4c3ccc[n+]4[O-])cc2C(=O)N(C)c2ccc(Cl)nc21,IC50,,nucleotide incorporation / radiometric,IIIB,0.01 µM
CC(C)Nc1cccnc1N1CCN(C(=O)c2nc3ccccc3[nH]2)CC1,IC50,,nucleotide incorporation,,<100 µM
CCN1c2ncc(CCOc3ccc4c(c3)CNC(=O)N4)cc2C(=O)N(C)c2cccnc21,IC50,,nucleotide incorporation / radiometric,IIIB,0.05–0.1 µM
CC(C)Nc1cccnc1N1CCN(C(=O)c2cc3cc(N)ccc3[nH]2)CC1,IC50,,nucleotide incorporation,,<100 µM
Cc1cc(C)c(S(=O)(=O)Oc2ccc3cccc(S(=O)(=O)O)c3c2)c(C)c1S(=O)(=O)Oc1ccc2cccc(S(=O)(=O)O)c2c1,IC50,,RT activity,,<50 µM
CS(=O)(=O)Nc1ccc2c(c1)CN(c1nn3c(C4CC4)nnc3c3ccccc13)CC2,IC50,,RT activity / fluorescence,KER2008,0.57 µM
COc1c(C)cc(C(=O)N2CCN(c3ncccc3NC(C)C)CC2)cc1C,IC50,,nucleotide incorporation,,<100 µM
Nc1ccc2c(O)c(Br)c(S(=O)(=O)O)cc2c1Br,IC50,,,,180 µM
c1cnc2c(c1)CN(c1nn3c(C4CC4)nnc3c3ccccc13)CC2,IC50,,RT activity / fluorescence,KER2008,2.9 µM
CCOC(=O)/C=C/c1c(-c2cccs2)[nH]c2ccccc12,IC50,,RT activity,,0.00797 µM
CCN1c2ncc(CCOc3cccc4c3CNC(=O)N4)cc2C(=O)Nc2c(C)ccnc21,IC50,RT-K103N Y181C,nucleotide incorporation / radiometric,IIIB,>0.1 µM
CCOCn1c(Sc2ccccc2)c(CC)c(=O)[nH]c1=O,IC50,,,,0.14 µM
CC(C)OP(=O)(OC(C)C)C(O)c1c(-c2cccs2)[nH]c2ccccc12,IC50,,RT activity,,0.00917 µM
FC(F)(F)c1cccc2c1CCN(c1nn3c(C4CC4)nnc3c3ccccc13)C2,IC90,,RT activity / fluorescence,IIIB,49.6 µM
Cn1cc(C(=O)Nc2cc(C(=O)NCCCCC(=O)Nc3cc(C(=O)Nc4cc(C(=O)NCCC(=N)N)n(C)c4)n(C)c3)cn2C)cc1NC(=O)CN=C(N)N,IC50,,nucleotide incorporation,,>200 µM
CCCCCC/C=C/CCCCCCCCCc1cccc(O)c1C(=O)O,IC50,,RT activity / nucleotide incorporation,,>100 µM
Oc1cc(O)c2c(c1)O[C@H](c1ccc(O)c(O)c1)[C@H](O)[C@H]2c1c(O)cc(O)c2c1O[C@H](c1ccc(O)c(O)c1)[C@H](O)[C@H]2c1c(O)cc(O)c2c1O[C@H](c1ccc(O)c(O)c1)[C@H](O)[C@H]2c1c(O)cc(O)c2c1O[C@H](c1ccc(O)c(O)c1)[C@H](O)C2,IC50,,nucleotide incorporation,,>20 µg/mL
CCCCCCCCCCCCCCCC(=O)Nc1ccc(S(=O)(=O)O)c2ccccc12,IC50,,RT activity,,>50 µM
Cn1cc(C(=O)Nc2cc(C(=O)NCCC(=O)Nc3cc(C(=O)Nc4cc(C(=O)NCCC(=N)N)n(C)c4)n(C)c3)cn2C)cc1NC(=O)CN=C(N)N,IC50,,nucleotide incorporation,,145 µM
C#CC(O)/C=C/C/C=C/C=C/C=C/CC#CC(O)C#CC/C=C/C=C/C=C/CC(O)C#C,IC50,,radiometric,,2.6 µM
COP(=O)(c1cc(C)cc(CCC#N)c1)c1c(C(N)=O)[nH]c2ccc(Cl)cc12,IC50,,RT activity,,0.343 µM
CCCCCCCCCCCCCCCc1cccc(O)c1C(=O)O,IC50,,RT activity / RNase H,,170.3 µM
CS(=O)(=O)O.O=C(O)c1cn(-c2ccc3ccccc3c2)c2cc(N3CCNCC3)c(F)cc2c1=O,IC50,,ELISA,,<1 µg/mL
CCN1c2ncc(CCOc3cccc4c3CC(=O)N4C)cc2C(=O)N(C)c2cccnc21,IC50,,nucleotide incorporation / radiometric,IIIB,0.05–0.1 µM
Cn1cc(C(=O)Nc2cc(C(=O)NCCCCCCCC(=O)Nc3cc(C(=O)Nc4cc(C(=O)NCCC(=N)N)n(C)c4)n(C)c3)cn2C)cc1NC(=O)CN=C(N)N,IC50,,nucleotide incorporation,,200 µM
CC(C)Nc1cc(F)ccc1N1CCN(C(=O)c2cc3ccccc3[nH]2)CC1,IC50,,nucleotide incorporation,,<100 µM
Cn1cc(C(=O)Nc2cc(C(=O)NCCCC(=O)Nc3cc(C(=O)Nc4cc(C(=O)NCCC(=N)N)n(C)c4)n(C)c3)cn2C)cc1NC(=O)CN=C(N)N,IC50,,nucleotide incorporation,,>200 µM
CS(=O)(=O)O.O=C(O)c1cn(-c2cccc3ccccc23)c2nc(N3CCNCC3)c(F)cc2c1=O,IC50,,ELISA,,>1 µg/mL
COc1cc2cc(C(=O)N3CCN(c4ncccc4NC(C)C)CC3)[nH]c2cc1OC,IC50,,nucleotide incorporation,,~100 µM
CCn1c2cc(=NN=[N-])ccc-2[n+](C)c(=O)c2cccnc21,IC50,,nucleotide incorporation,,0.085 µM
CC1CN(c2cc3c(cc2F)c(=O)c(C(=O)O)cn3-c2ccc3ccccc3c2)CCN1.CS(=O)(=O)O,IC50,,ELISA,,<1 µg/mL
CNc1cccnc1N1CCN(C(=O)c2cc3cc(F)ccc3[nH]2)CC1,IC50,,nucleotide incorporation,,<100 µM
CCN1c2ncc(CCOc3cccc4c3CC(=O)N4)cc2C(=O)N(C)c2cccnc21,IC50,RT-K103N Y181C,nucleotide incorporation / radiometric,IIIB,>0.1 µM
O=C(O[C@@H]1O[C@@H]2COC(=O)c3cc(O)c(O)c(O)c3-c3c(cc(O)c(O)c3O)C(=O)O[C@@H]3[C@H]1OC(=O)c1cc(O)c(O)c4c1[C@@H]1C5(CC(=O)C(O)(O[C@]56C(=O)O[C@@H]5[C@@H](O)COC56O)[C@]1(O)O4)C(=O)O[C@@H]32)c1cc(O)c(O)c(O)c1,IC50,,nucleotide incorporation,,>20 µg/mL
Cc1cn([C@H]2CC[C@@H](OCP(=O)(O)OP(=O)(O)OP(=O)(O)O)[C@@H]2F)c(=O)[nH]c1=O,IC50,,,,0.04 µM
CCN1c2ncc(CCOc3cccc4c3CN(Cc3ccncc3)C4=O)cc2C(=O)N(C)c2cccnc21,IC50,,nucleotide incorporation / radiometric,IIIB,<0.05 µM
CC1CN(c2nc3c(cc2F)c(=O)c(C(=O)O)cn3-c2cccc3ccccc23)CCN1.CS(=O)(=O)O,IC50,,ELISA,,~1 µg/mL
CCOc1ccccc1N1CCN(C(=O)c2cc3ccccc3[nH]2)CC1,IC50,,nucleotide incorporation,,<100 µM
O=C(O[C@@H]1O[C@@H]2COC(=O)c3cc(O)c(O)c(O)c3-c3c(cc(O)c(O)c3O)C(=O)O[C@H]2[C@H](O)[C@H]1O)c1cc(O)c(O)c(O)c1,IC50,,nucleotide incorporation,,<20 µg/mL
CCN1c2ncc(CCOc3cccc4c3COC(=O)N4CC(=O)O)cc2C(=O)N(C)c2cccnc21,IC50,,nucleotide incorporation / radiometric,IIIB,0.05–0.1 µM
N#C/C=C/c1c(-c2cccs2)[nH]c2ccccc12,IC50,,RT activity,,0.00804 µM
O=C(CCCCCCC(=O)Nc1ccc(S(=O)(=O)O)c2ccccc12)Nc1ccc(S(=O)(=O)O)c2ccccc12,IC50,,RT activity,,>50 µM
O=C1OCC2OC(O)C3OC(=O)c4cc(O)c(O)c(O)c4-c4c(cc(O)c(O)c4O)C(=O)OC3C2OC(=O)c2cc(O)c(O)c(O)c2-c2c1cc(O)c(O)c2O,IC50,,nucleotide incorporation,,>20 µg/mL
CCOP(=O)(OCC)C(O)c1c(-c2cccs2)[nH]c2ccccc12,IC50,,RT activity,,0.00748 µM
O=C(CC1Nc2ccccc2S(=O)(=O)n2cccc21)OCc1ccc(Cl)cc1,IC50,,RT activity,IIIB,32 µM
N#Cc1ccc2c(c1)CN(c1nn3c(C4CC4)nnc3c3ccccc13)CC2,IC90,,RT activity / fluorescence,98US_MSC5016,3.55 µM
O=C(CCCCCCCCC(=O)Nc1ccc(S(=O)(=O)O)c2ccccc12)Nc1ccc(S(=O)(=O)O)c2ccccc12,IC50,,RT activity,,>50 µM
O=S1(=O)c2ccccc2-n2cnnc2-c2cccn21,IC50,,RT activity,IIIB,52 µM

For reference, 7 entries again:

structure	endpoint	mutations	read by	strain or isolate	value
CNc1cccnc1N1CCN(C(=O)c2cc3cc(F)ccc3[nH]2)CC1	IC50		nucleotide incorporation		<100 µM
CCN1c2ncc(CCOc3cccc4c3ccc[n+]4[O-])cc2C(=O)N(C)c2ccc(Cl)nc21	IC50		nucleotide incorporation / radiometric	IIIB	0.01 µM
CCOP(=O)(OCC)C(O)c1c(-c2cccs2)[nH]c2ccccc12	IC50		RT activity		0.00748 µM
Nc1ccc2c(O)c(Br)c(S(=O)(=O)O)cc2c1Br	IC50				180 µM
N#C/C=C/c1c(-c2cccs2)[nH]c2ccccc12	IC50		RT activity		0.00804 µM
CCOCn1c(Sc2ccccc2)c(CC)c(=O)[nH]c1=O	IC50				0.14 µM
COc1c(C)cc(C(=O)N2CCN(c3ncccc3NC(C)C)CC2)cc1C	IC50		nucleotide incorporation		<100 µM

ICn is the concentration giving n% inhibition. Two numbers with a dash give a range or band. Conditions beyond the fields shown may differ between rows.